# Test results published in patent US11485758B2, “Bi-terminal pegylated integrin-binding peptides and methods of use thereof” (The Regents of the University of California, priority 2014, dated 2022).
# Columns and labels:
# [1] = Biodistribution in paired DX3puroβ6/DX3puro xenograft mouse model: organs, urine, blood; assay type: in vivo, mice
# [2] = test system: BxPC-3 tumors (endogenous αvβ6-expression); settings: for POS/NEG tumor ratio, in words: BxPC-3/MIA PaCa-2, 1-4 h
# Method: (PBS) or 37° C. (serum), followed by analysis on radio HPLC. Data are expressed as % probe remaining intact in sample. […] Tumor models—DX3puroβ6/DX3puro: Human melanoma cell line. DX3puroβ6 has been stably transfected to express integrin αvβ6. DX3puro is negative control cell line. […] BxPC-3: Pancreatic cell line with endogenous αvβ6-expression. MIA PaCa-2: Pancreatic cell line, no αvβ6-expression.
# [3] = test system: integrin αvβ6-expressing DX3puroβ6 tumors; settings: for POS/NEG tumor ratio, in words: DX3puroβ6/DX3puro, 1-4 h
# [4] = test system: non-expressing DX3puro control tumors
# [5] = test system: MIA PaCa-2 tumors (no αvβ6-expression)
# [6] = for Number of metabolites in urine: radio HPLC
# [7] = test system: αvβ6-expressing tumor; settings: cited from earlier work
# [8] = not given; remark: listed apart in the source
# [9] = 1 h post-injection
# [10] = ~6 h
# [11] = formulated radiotracer, radio-HPLC
# [12] = mouse serum, 1 hour, 37° C., radio RP-HPLC
# [13] = 37° C., 120 min (2 h)
# [14] = summary statement, model and time point not given
substance,measurement,setting,value
18F-FBA-A20FMDV2 [compound 1],Lung uptake,"[1]; 2, 4 h",0.4 % ID/g
same,Kidney uptake,[1]; 1 h,< 6 % ID/g
same,Lung uptake,[1]; 1 h,1.6 % ID/g
same,Stomach uptake,[1]; 1 h,< 4 % ID/g
same,Kidney uptake,[1]; 4 h,< 0.5 % ID/g
same,Urine radioactivity,[1]; at 1.2 h (so in the source),> 900 % ID/g
same,BxPC-3 (POS) tumor uptake,[2]; 1 h p.i.,0.69 % ID/g
same,BxPC-3 (POS) tumor uptake,[2]; 4 h p.i.,0.12 % ID/g
same,"POS/NEG tumor ratio, in words",[2],"Good POS/NEG ratio, increasing over time, better than Dx3puroB6/Dx3puro pair"
same,DX3puroβ6 (POS) tumor uptake,[3]; 1 h p.i.,0.88 % ID/g
same,DX3puroβ6 (POS) tumor uptake,[3]; 4 h p.i.,0.23 % ID/g
same,"POS/NEG tumor ratio, in words",[3],"Moderate POS/NEG ratio, going to near-parity @ 4 h"
same,DX3puro (NEG) tumor uptake,[4]; 1 h p.i.,0.49 % ID/g
same,DX3puro (NEG) tumor uptake,[4]; 4 h p.i.,0.19 % ID/g
same,MIA PaCa-2 (NEG) tumor uptake,[5]; 1 h p.i.,0.16 % ID/g
same,MIA PaCa-2 (NEG) tumor uptake,[5]; 4 h p.i.,0.01 % ID/g
same,Lung uptake,"2, 4 h",< 0.1 % ID/g
same,Kidney uptake,1 h,< 4 % ID/g
same,Lung uptake,1 h,0.8 % ID/g
same,Stomach uptake,1 h,0.5 % ID/g
same,Kidney uptake,4 h,< 0.2 % ID/g
same,Urine radioactivity,at 1.2 h (so in the source),> 300 % ID/g
same,"Urine metabolites, share per HPLC peak","[6]; peaks at 9.0, 10.4, 10.8 min, ratio varies between animals/time points",44% and 30% and 26%
same,Number of metabolites in urine,[6],3
same,Percent injected dose per gram of αvβ6-expressing tumor,[7]; 1 h post injection,0.66 % ID/g
same,Percent injected dose per gram of αvβ6-expressing tumor,[7]; 2 h post injection,0.28 % ID/g
same,Percent injected dose per gram of αvβ6-expressing tumor,[7]; 4 h post injection,0.06 % ID/g
same,Number of metabolites in urine,[7]; by one hour,three
same,"Unmetabolized peptide in urine, in words",[7]; by one hour,no unmetabolized peptide was detected
18F-FBA-A20FMDV2-PEG28 [compound 4],Urine radioactivity,[1]; at 1.2 h (so in the source),> 1000 % ID/g
same,Gall bladder uptake,[1]; time point not given,< 10 % ID/g
same,Kidney uptake after clearing over time,[1]; time point not given,~2 % ID/g
same,"LgInt uptake, first value of time course",[1]; time point not given,~9 % ID/g
same,"LgInt uptake, last value of time course",[1]; time point not given,2 % ID/g
same,Liver uptake,[1]; time point not given,< 0.5 % ID/g
same,"Lung uptake, first value of time course",[1]; time point not given,~3 % ID/g
same,"Lung uptake, last value of time course",[1]; time point not given,2 % ID/g
same,"Stomach uptake, first value of time course",[1]; time point not given,~12 % ID/g
same,"Stomach uptake, last value of time course",[1]; time point not given,2 % ID/g
same,"POS/NEG tumor ratio, in words",[3],"Moderate, relatively steady POS/NEG over time"
same,Initial tumor uptake,[3]; [14],> 1 % ID/g
same,DX3puro (NEG) tumor uptake,[4]; 1 h p.i.,0.5 % ID/g
same,DX3puro (NEG) tumor uptake,[4]; 2 h p.i.,0.3 % ID/g
same,DX3puro (NEG) tumor uptake,[4]; 4 h p.i.,0.1 % ID/g
same,Number of metabolites in urine,[6],3
18F-FBA-PEG28-A20FMDV2 [compound 2],Kidney uptake,[1]; 1 h,25 % ID/g
same,Lung uptake,[1]; 1 h,2.0 % ID/g
same,Stomach uptake,[1]; 1 h,7 % ID/g
same,Urine radioactivity,[1]; 1 h,~200 % ID/g
same,Kidney uptake,[1]; 4 h,2.7 % ID/g
same,Lung uptake,[1]; 4 h,1.4 % ID/g
same,Stomach uptake,[1]; 4 h,1.8 % ID/g
same,Gall bladder uptake,[1]; time point not given,< 3 % ID/g
same,Liver uptake,[1]; time point not given,< 0.1 % ID/g
same,Tumor uptake,"[2]; summary statement, time point not given",~2 % ID/g
same,"POS/NEG tumor ratio, in words",[3],"Good POS/NEG ratio, increasing for later time points, highest at 2 h"
same,DX3puro (NEG) tumor uptake,[4]; 1 h p.i.,0.11 % ID/g
same,DX3puro (NEG) tumor uptake,[4]; 4 h p.i.,0.07 % ID/g
same,Kidney uptake,1 h,19 % ID/g
same,Lung uptake,1 h,2.1 % ID/g
same,Stomach uptake,1 h,2.6 % ID/g
same,Urine radioactivity,1 h,~400 % ID/g
same,Kidney uptake,4 h,3.3 % ID/g
same,Lung uptake,4 h,1.7 % ID/g
same,Stomach uptake,4 h,1.9 % ID/g
same,Gall bladder uptake,time point not given,< 4 % ID/g
same,Liver uptake,time point not given,< 0.2 % ID/g
same,Number of metabolites in urine,[6],a major metabolite
18F-FBA-PEG28-A20FMDV2-PEG28 [compound 5],Gall bladder uptake,[1]; 1 h,7 % ID/g
same,Kidney uptake,[1]; 1 h,58 % ID/g
same,Liver uptake,[1]; 1 h,< 0.5 % ID/g
same,Stomach uptake,[1]; 1 h,11 % ID/g
same,Urine radioactivity,[1]; 1 h,396 % ID/g
same,Gall bladder uptake,[1]; 4 h,2.7 % ID/g
same,Kidney uptake,[1]; 4 h,20 % ID/g
same,Stomach uptake,[1]; 4 h,8 % ID/g
same,Urine radioactivity,[1]; 4 h,135 % ID/g
same,LgInt uptake,[1]; steady over time,~5 % ID/g
same,Lung uptake,[1]; steady over time,~2 % ID/g
same,BxPC-3 (POS) tumor uptake,"[2]; 1 h p.i., listed as FBA-PEG28-A20FMDV2-PEG28",4.7 % ID/g
same,BxPC-3 (POS) tumor uptake,"[2]; 4 h p.i., listed as FBA-PEG28-A20FMDV2-PEG28",3.4 % ID/g
same,"POS/NEG tumor ratio, in words",[3],"Good POS/NEG ratio, increasing over time"
same,DX3puro (NEG) tumor uptake,[4]; 1 h p.i.,0.39 % ID/g
same,DX3puro (NEG) tumor uptake,[4]; 4 h p.i.,0.14 % ID/g
same,"Gall bladder, stomach, intestines uptake (all)",1 h,< 20 % ID/g
same,Kidney uptake,1 h,76 % ID/g
same,Urine radioactivity,1 h,482 % ID/g
same,"Gall bladder, stomach, intestines uptake (all)",4 h,< 10 % ID/g
same,Kidney uptake,4 h,19.3 % ID/g
same,Urine radioactivity,4 h,223 % ID/g
same,Lung uptake,steady over time,~2 % ID/g
same,"Liver, pancreas uptake",time point not given,< 1 % ID/g
same,"Fraction of probe intact in urine, in words",[6]; 1 h,Over two-thirds
same,Intact radiotracer in urine,[6]; 1 h,69% and 67%
same,Main metabolite in urine ([…]),[6]; 1 h,31% and 29%
same,Intact radiotracer in urine,[6]; 2 h,78%
same,Main metabolite in urine ([…]),[6]; 2 h,16%
same,"Fraction of probe intact in urine, in words",[6]; 4 h,approx. half
same,Intact radiotracer in urine,[6]; 4 h,45%
same,Main metabolite in urine ([…]),[6]; 4 h,55%
same,Number of metabolites in urine,[6],only one metabolite
same,Probe intact in tumor,"[8]; 1 h, DX3puroB6 and BxPC-3 tumors",> 80%
same,Stability (intact radiotracer) in BxPC-3 tumor,[8]; 1 h post-injection,81.45%
same,Intact radiotracer in DX3puroB6 tumor,[8]; peak at 17.4 min,82-84%
same,Likely metabolites in DX3puroB6 tumor,[8]; peaks at 17.0-17.2 min,14-18%
same,Stability (intact radiotracer) in kidneys,[9],88.5%
same,Stability (intact radiotracer) in kidneys,[9]; listed as FBA-PEG28-A20FMDV2-PEG28,~90%
same,Intact in PBS,[10],> 92%
same,Decomposition in the radiotracer formulation,[11],around 5%
18F-FBA-PEG28-PEG28-A20FMDV2 [compound 3],Kidney uptake,[1]; 1 h,41 % ID/g
same,Lung uptake,[1]; 1 h,1.1 % ID/g
same,Stomach uptake,[1]; 1 h,5.5 % ID/g
same,Urine radioactivity,[1]; 1 h,~60 % ID/g
same,Kidney uptake,[1]; 4 h,46 % ID/g
same,Lung uptake,[1]; 4 h,1.3 % ID/g
same,Stomach uptake,[1]; 4 h,5.5 % ID/g
same,Gall bladder uptake,[1]; time point not given,< 3 % ID/g
same,Liver uptake,[1]; time point not given,< 0.1 % ID/g
same,"POS/NEG tumor ratio, in words",[2],"Good POS/NEG ratio, significantly increasing over time"
same,"POS/NEG tumor ratio, in words",[3],"Good POS/NEG ratio, increasing over time"
same,DX3puro (NEG) tumor uptake,[4]; 1 h p.i.,0.11 % ID/g
same,DX3puro (NEG) tumor uptake,[4]; 4 h p.i.,0.07 % ID/g
same,MIA PaCa-2 (NEG) tumor uptake,[5]; 1 h p.i.,0.22 % ID/g
same,MIA PaCa-2 (NEG) tumor uptake,[5]; 4 h p.i.,0.12 % ID/g
same,Kidney uptake,1 h,43 % ID/g
same,Lung uptake,1 h,1.7 % ID/g
same,Stomach uptake,1 h,2.3 % ID/g
same,Urine radioactivity,1 h,~1500 % ID/g
same,Kidney uptake,4 h,42 % ID/g
same,Lung uptake,4 h,1.3 % ID/g
same,Stomach uptake,4 h,6.6 % ID/g
same,"Kidney level (trapped, no release)",[14],40 % ID/g
same,Gall bladder uptake,time point not given,< 1.5 % ID/g
same,Liver uptake,time point not given,< 0.2 % ID/g
H-RSDLTPLFK([^18F]FBA)-NH2,Serum stability (intact peptide),[12],18.6%
[^18F]FBA-PEG28-A20FMDV2 K16R-PEG28 [compound 5R],Kidney uptake,[1]; 4 h,< 8 % ID/g and 7.87 % ID/g
same,Intact in serum,[13],90%
same,Decomposition in the radiotracer formulation,[11],no partial decomposition
[^18F]FBA-RSDLTPLF-NH2,Serum stability (intact peptide),[12],66%
[^18F]FBA-RSDLTPLFK(NH2)-NH2,Serum stability (intact peptide),[12],95.2%

# Where “and” joins values, the source holds several entries; their conditions need not be identical. Equal entries are not always repeated. Where two headings read alike, the source gives them in different places.
